Results of unrelated studies side by side (data: NIAID ChemDB).

Common to all: target-level tests

Rows are shuffled and stem from different studies.

smiles,dose,endpoint,protein,strain,method,agent,value
CN1CCNCCC1c1cc(C(=O)Nc2ccc3cn[nH]c3c2)c(F)cc1F,0.01 µg/mL,inhibition,Reverse transcriptase,-,-,Hepatitis B virus,10%
C=C[C@@H]1C[C@]1(NC(=O)[C@@H]1C[C@@H](Oc2nccc3ccc(Br)cc23)CN1C(C)=O)C(=O)NS(=O)(=O)C1CC1,-,IC50,Nonstructural protein 3/4A,1b A156T,FRET,Hepatitis C virus,>3 µM
O=C(O)c1sc(-c2ccccc2)cc1NS(=O)(=O)c1cccs1,-,IC50,NS3 ATPase,-,-,Hepatitis C virus,<5 µM
O=C(Cc1cccc2ccccc12)Nc1ccsc1-c1nc(C(=O)O)c(O)c(=O)[nH]1,-,IC50,HCV polymerase,-,-,Hepatitis C virus,<25 µM
O=C(O)c1sc(-c2ccccc2)cc1NS(=O)(=O)c1ccc(Cl)s1,-,IC50,NS3 ATPase,-,-,Hepatitis C virus,<5 µM
Cc1cc(-c2nc(C(=O)O)c(O)c(=O)[nH]2)no1,-,IC50,HCV polymerase,-,-,Hepatitis C virus,<100 µM
COc1cc(C)c(S(=O)(=O)N(Cc2ccc(-c3cc4ccccc4o3)cc2)[C@@H](Cc2ccc(O)cc2)C(=O)O)c(C)c1C,-,IC50,RNA-dependent RNA polymerase,-,-,Hepatitis C virus,<5 µM
CC(C)(C)OC(=O)N[C@@H](CC(F)F)C(=O)Nc1ccsc1-c1nc(C(=O)O)c(O)c(=O)[nH]1,-,IC50,HCV polymerase,-,-,Hepatitis C virus,<25 µM
COc1ccc(/C=C2/SC(=S)N(NS(=O)(=O)c3ccccc3)C2=O)cc1OC,-,IC50,NS5B polymerase,-,-,Hepatitis C virus,>30 µM
O=C(Nc1ccc2[nH]ncc2c1)c1cc(N2CCNCC2)c(F)cc1F,0.1 µg/mL,inhibition,Reverse transcriptase,-,-,Hepatitis B virus,36%
Cc1ccccc1S(=O)(=O)Nc1cc(-c2ccc(Cl)cc2)sc1C(=O)O,-,IC50,NS3 ATPase,-,-,Hepatitis C virus,<5 µM
O=C(O)[C@H](Cc1ccccc1)N(Cc1ccc(-c2cccc(Cl)c2)o1)C(=O)c1ccccc1Cl,-,IC50,RNA-dependent RNA polymerase,-,-,Hepatitis C virus,5–20 µM
O=C(O)c1sc(-c2ccccc2)cc1N(C(=O)c1ccc(Cl)cc1Cl)C1CCCNC1,-,IC50,NS3 ATPase,-,-,Hepatitis C virus,<5 µM
O=C1c2ccccc2S(=O)(=O)c2cc(-c3nc(C(=O)O)c(O)c(=O)[nH]3)ccc21,-,IC50,HCV polymerase,-,-,Hepatitis C virus,<100 µM
O=C1/C(=C\c2ccc3c(c2)OCO3)SC(=S)N1NS(=O)(=O)c1ccccc1,-,IC50,NS5B polymerase,-,-,Hepatitis C virus,≤30 µM
O=C(O)c1nc(-c2cccc(OCc3cccc(Cl)c3)c2)[nH]c(=O)c1O,-,IC50,HCV polymerase,-,-,Hepatitis C virus,<100 µM
O=C(O)c1sc(-c2ccccc2)cc1NS(=O)(=O)c1ccccc1,-,IC50,NS3 ATPase,-,-,Hepatitis C virus,5–20 µM
O=C(O)c1nc(-c2ccsc2CO)[nH]c(=O)c1O,-,IC50,HCV polymerase,-,-,Hepatitis C virus,<25 µM
COC(=O)c1sc(-c2ccccc2)cc1NC(=O)c1ccccc1C(=O)O,-,IC50,NS3 ATPase,-,-,Hepatitis C virus,5–20 µM
O=C(O)[C@H](Cc1ccccc1)N(Cc1cccc(Br)c1)S(=O)(=O)c1ccc(Cl)cc1Cl,-,IC50,RNA-dependent RNA polymerase,-,-,Hepatitis C virus,>20 µM
O=C(Nc1ccc2cn[nH]c2c1)c1cc(NCc2ccccn2)c(F)cc1F,10 µg/mL,inhibition,Nonstructural protein 5B,-,-,Hepatitis C virus,77%
O=C(O)[C@H](Cc1ccccc1)N(Cc1ccc(-c2cc(C(F)(F)F)ccc2Cl)o1)C(=O)c1ccc(Cl)cc1Cl,-,IC50,RNA-dependent RNA polymerase,-,-,Hepatitis C virus,<5 µM
CCCCS(=O)(=O)NN1C(=O)/C(=C\c2ccc(Cl)c(Cl)c2)SC1=S,-,IC50,NS5B polymerase,-,-,Hepatitis C virus,≤30 µM
Cc1ccccc1S(=O)(=O)Nc1cc(-c2ccc(Cl)s2)sc1C(=O)O,-,IC50,NS3 ATPase,-,-,Hepatitis C virus,<5 µM
O=C(Nc1ccc2cn[nH]c2c1)c1cc(C2CCNCCN2)c(F)cc1F,10 µg/mL,inhibition,Nonstructural protein 5B,-,-,Hepatitis C virus,76%
CN1C(=O)/C(=C\c2ccc([N+](=O)[O-])cc2)SC1=S,-,IC50,NS5B polymerase,-,-,Hepatitis C virus,≤30 µM
O=C(O)c1sc(-c2ccccc2)cc1N(CC1CCN(C(=O)OCc2ccccc2)CC1)C(=O)c1ccc(Cl)cc1Cl,-,IC50,NS3 ATPase,-,-,Hepatitis C virus,<5 µM
NN1C(=O)/C(=C\c2ccc(F)cc2)SC1=S,-,IC50,NS5B polymerase,-,-,Hepatitis C virus,≤30 µM
CN1CCN(c2cc(C(=O)Nc3ccc4[nH]ncc4c3)c(F)cc2F)CC1,-,IC50,Reverse transcriptase,-,-,Hepatitis B virus,0.01–0.1 µg/mL
NN1C(=O)/C(=C\c2cc(F)c(F)cc2F)SC1=S,-,IC50,NS5B polymerase,-,-,Hepatitis C virus,≤30 µM
O=C(O)c1nc(-c2ccco2)[nH]c(=O)c1O,-,IC50,HCV polymerase,-,-,Hepatitis C virus,<100 µM
CC1CCC(C(=O)N(c2cc(-c3ccccc3)sc2C(=O)O)C2COCOC2)CC1,-,IC50,NS3 ATPase,-,-,Hepatitis C virus,<5 µM
O=C1NC(=S)S/C1=C/c1ccc(Cl)c(Cl)c1,-,IC50,NS5B polymerase,-,-,Hepatitis C virus,≤30 µM
Nc1ccsc1-c1nc(C(=O)O)c(O)c(=O)[nH]1,-,IC50,HCV polymerase,-,-,Hepatitis C virus,<25 µM
O=C(Nc1ccc2[nH]ncc2c1)c1cc(NCc2ccccn2)c(F)cc1F,0.1 µg/mL,inhibition,Nonstructural protein 5B,-,-,Hepatitis C virus,36%
O=C(O)C(Cc1ccccc1)N(Cc1ccc(I)cc1)C(=O)c1ccc(Cl)cc1Cl,-,IC50,RNA-dependent RNA polymerase,-,-,Hepatitis C virus,5–20 µM
O=C1/C(=C\c2ccc(-c3cc(C(F)(F)F)ccc3Cl)o2)SC(=S)N1NS(=O)(=O)c1ccccc1,-,IC50,NS5B polymerase,-,-,Hepatitis C virus,≤30 µM

Repeating the final 3 entries:

smiles | dose | endpoint | protein | strain | method | agent | value
O=C(Nc1ccc2[nH]ncc2c1)c1cc(NCc2ccccn2)c(F)cc1F | 0.1 µg/mL | inhibition | Nonstructural protein 5B | - | - | Hepatitis C virus | 36%
O=C(O)C(Cc1ccccc1)N(Cc1ccc(I)cc1)C(=O)c1ccc(Cl)cc1Cl | - | IC50 | RNA-dependent RNA polymerase | - | - | Hepatitis C virus | 5–20 µM
O=C1/C(=C\c2ccc(-c3cc(C(F)(F)F)ccc3Cl)o2)SC(=S)N1NS(=O)(=O)c1ccccc1 | - | IC50 | NS5B polymerase | - | - | Hepatitis C virus | ≤30 µM

ICn is the concentration giving n% inhibition. a–b is a range or a potency band. Blank or dashed fields: not listed here. Inhibition is in % at the dose shown (toxicity tests: loss of growth or viability).